Values from PubChem BioAssay AID1224833 (University of Georgia, 2016).
This is one part, drawn at random, of about 12,000 reagents. In the full data, about 5,600 (46%) got an active call. 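Active calls cover z-scores past 1 in both directions, so they include lowered as well as raised rotavirus replication.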 The numbers tell different reagents against one gene apart.

- Aim: 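Human genes whose knock-down alters rotavirus replication in monkey cells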 (primary screen)
- Cell system: monkey MA104 kidney cells
- Reagents: siRNA pool against human genes, 50 nM
- Time to read-out: 48 h knock-down before infection; read 24 h after infection
- Treatment: infection with rotavirus strain RV3 two days after transfection; infectious dose for this stage not given
- Detection: 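Rotavirus antigen per well by fluorescent immunoassay, normalised to non-targeting control wells on each plate and given as a standard z-score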
- Reading the numbers: z-score vs non-targeting control: higher = more rotavirus replication than with non-targeting control
- Call rule: In these data the active calls have z-score vs non-targeting control at about -1 or lower, or at about 1 or higher
- Meaning of the calls: active = z-score beyond 1 either way; inactive = z-score within 1 of zero

| gene | reagent | z-score vs non-targeting control | Outcome |
| --- | --- | --- | --- |
| SHISA6 | 1 | -0.864 | inactive |
| IL20RB | 1 | -0.607 | inactive |
| KIF20A | 1 | 2.49 | active |
| TDRD6 | 1 | 0.322 | inactive |
| MTSS1 | 1 | -1.35 | active |
| UBQLN4 | 1 | 0.251 | inactive |
| HS6ST2 | 1 | -0.869 | inactive |
| TM4SF19 | 1 | 1.35 | active |
| AHI1 | 1 | -0.292 | inactive |
| WFDC5 | 1 | 2.22 | active |
| GKAP1 | 1 | -1.22 | active |
| EPDR1 | 1 | 0.046 | inactive |
| GSTP1 | 1 | 0.749 | inactive |
| GLMP | 1 | 1.28 | active |
| TMEM128 | 1 | -0.861 | inactive |
| RAG2 | 1 | -0.523 | inactive |
| HABP4 | 1 | 0.642 | inactive |
| C1orf162 | 1 | -2.4 | active |
| VGLL4 | 1 | 0.452 | inactive |
| MYO1D | 1 | -1.91 | active |
| IGHMBP2 | 1 | -1.19 | active |
| IL17D | 1 | 0.646 | inactive |
| MEAF6 | 1 | -1.2 | active |
| KLHL7 | 1 | 0.0344 | inactive |
| CAV3 | 1 | 0.817 | inactive |
| SECTM1 | 1 | -1.83 | active |
| MGARP | 1 | 1.16 | active |
| RAB9A | 1 | -0.921 | inactive |
| XYLT2 | 1 | 0.523 | inactive |
| ARHGAP5 | 1 | -1.56 | active |
| CMTM4 | 1 | -0.425 | inactive |
| OR13D1 | 1 | -0.802 | inactive |
| ICAM3 | 1 | -1.96 | active |
| SNX18 | 1 | 0.931 | inactive |
| PIGQ | 1 | -1.91 | active |
| FSTL5 | 1 | 2.09 | active |
| RILPL2 | 1 | -0.817 | inactive |
| ANKRD42 | 1 | 2.02 | active |
| OR14C36 | 1 | -1.42 | active |
| BIN3 | 1 | 0.06 | inactive |
| PANX3 | 1 | -1.1 | active |
| OR2T27 | 1 | -1.47 | active |
| DPP3 | 1 | 0.844 | inactive |
| SNRNP48 | 1 | -1.44 | active |
| CLIP3 | 1 | -1.35 | active |
| RGS22 | 1 | -0.961 | inactive |
| MYH8 | 1 | 1.63 | active |
| HS3ST1 | 1 | -1.24 | active |
| AP3S2 | 1 | 0.475 | inactive |
| CHAD | 1 | 0.342 | inactive |
| LY75 | 1 | -1.8 | active |
| VKORC1L1 | 1 | -0.779 | inactive |
| LAMTOR5 | 1 | -0.22 | inactive |
| PTGR3 | 1 | -0.525 | inactive |
| PRXL2C | 1 | 0.555 | inactive |
| WASHC5 | 1 | 0.168 | inactive |
| USP6NL | 1 | -0.0897 | inactive |
| GAS7 | 1 | 0.527 | inactive |
| ZNF546 | 1 | -0.429 | inactive |
| DBN1 | 1 | -0.462 | inactive |
| PRELID1 | 1 | -0.46 | inactive |
| TFF1 | 1 | -0.536 | inactive |
| ARHGEF12 | 1 | 1.92 | active |
| FIS1 | 1 | 0.126 | inactive |
| MARVELD3 | 1 | 1.15 | active |
| CSRNP3 | 1 | -0.779 | inactive |
| RINT1 | 1 | -0.0016 | inactive |
| PAM16 | 1 | -1.19 | active |
| DKK2 | 1 | 0.199 | inactive |
| OR7C2 | 1 | -0.593 | inactive |
| MICAL2 | 1 | -0.56 | inactive |
| MICAL2 | 2 | 2.43 | active |
| SDCBP | 1 | 0.676 | inactive |
| ARG2 | 1 | -2.36 | active |
| ATF3 | 1 | 1.77 | active |
| SHC3 | 1 | 0.139 | inactive |
| NDUFB9 | 1 | -0.648 | inactive |
| SEC23B | 1 | -1.33 | active |
| HOXB3 | 1 | 0.998 | inactive |
| PAGE1 | 1 | -0.292 | inactive |
| ANKRD55 | 1 | 0.982 | inactive |
| CD3G | 1 | 1.79 | active |
| ANO6 | 1 | -1.99 | active |
| CCDC28B | 1 | 1.74 | active |
| GPC6 | 1 | -1.4 | active |
| LINS1 | 1 | -0.488 | inactive |
| ARRDC4 | 1 | 0.352 | inactive |
| OR4M1 | 1 | 0.0472 | inactive |
| ZGPAT | 1 | 3.43 | active |
| DET1 | 1 | -1.62 | active |
| GCHFR | 1 | 0.634 | inactive |
| RPA2 | 1 | 1.4 | active |
| DNALI1 | 1 | 0.922 | inactive |
| CYP26A1 | 1 | 1.18 | active |
| CYTH4 | 1 | -0.995 | inactive |
| ZNRD2 | 1 | -0.759 | inactive |
| SERPINB5 | 1 | -1.29 | active |
| EXOC6 | 1 | -0.508 | inactive |
| DIDO1 | 1 | 0.962 | inactive |
| KREMEN1 | 1 | -2.65 | active |
| PILRB | 1 | -0.196 | inactive |
| DDHD2 | 1 | -1.35 | active |
| DENND1B | 1 | 0.615 | inactive |
| PRDM7 | 1 | 0.132 | inactive |
| BRD7 | 1 | -0.0774 | inactive |
| CINP | 1 | 0.246 | inactive |
| LTA4H | 1 | -1.79 | active |
| OR52N5 | 1 | -0.468 | inactive |
| LIN37 | 1 | -0.179 | inactive |
| KNG1 | 1 | -0.791 | inactive |
| ZNF610 | 1 | -1.16 | active |
| COX7A2 | 1 | 2.15 | active |
| PAFAH1B2 | 1 | 1.97 | active |
| IRS2 | 1 | 0.0333 | inactive |
| MRPS7 | 1 | 0.509 | inactive |
| DNASE1L3 | 1 | -2.02 | active |
| C4A | 1 | -0.534 | inactive |
| KDM4A | 1 | 0.483 | inactive |
| KRTAP8-1 | 1 | 0.267 | inactive |
| DNAJC5 | 1 | -0.386 | inactive |
| TBC1D10A | 1 | 0.722 | inactive |
| TNFSF12-TNFSF13 | 1 | 1.31 | active |
| SLC6A12 | 1 | -1.74 | active |
| TENT2 | 1 | -1.08 | active |
| CXCL13 | 1 | -0.631 | inactive |
| LRRFIP2 | 1 | 1.31 | active |
| SLC1A4 | 1 | 0.373 | inactive |
| ATP1A4 | 1 | -1.2 | active |
| LINC03042 | 1 | 0.682 | inactive |
| FAM204A | 1 | -2.99 | active |
| DLX6 | 1 | -0.719 | inactive |
| TRMT1L | 1 | -1.54 | active |
| FAM81B | 1 | 0.484 | inactive |
| SLC25A10 | 1 | -0.748 | inactive |
| SNU13 | 1 | -0.696 | inactive |
| STC2 | 1 | 1.23 | active |
| PNLIPRP3 | 1 | -1.14 | active |
| GPC2 | 1 | -1.16 | active |
| CETN1 | 1 | -1.76 | active |
| ARMCX5 | 1 | -1.81 | active |

7 successive records already listed, quoted:
| gene | reagent | z-score vs non-targeting control | Outcome |
| --- | --- | --- | --- |
| PAM16 | 1 | -1.19 | active |
| DKK2 | 1 | 0.199 | inactive |
| OR7C2 | 1 | -0.593 | inactive |
| MICAL2 | 1 | -0.56 | inactive |
| MICAL2 | 2 | 2.43 | active |
| SDCBP | 1 | 0.676 | inactive |
| ARG2 | 1 | -2.36 | active |
